According to ChEMBL document CHEMBL1144291, “Synthesis of 9-(2-beta-C-methyl-beta-d-ribofuranosyl)-6-substituted purine derivatives as inhibitors of HCV RNA replication” (Bioorg Med Chem Lett, 2005):

What was measured:
[1] = tested on: Hepatitis C virus; experiment: Inhibition of hepatitis C virus RNA replication in a subgenomic replicon cell line
[2] = tested on: Hepatitis C virus; experiment: Cytotoxicity concentration to inhibit hepatitis C virus RNA replication in a subgenomic replicon cell line

Structure (SMILES) | EC50 [1] | CC50 [2]
COP(=O)(O)Nc1ncnc2c1ncn2C1O[C@H](CO)[C@@H](O)[C@@]1(C)O (stereo partly specified) | 33 µM | 300 µM
CCOP(=O)(Nc1ncnc2c1ncn2C1O[C@H](CO)[C@@H](O)[C@@]1(C)O)OCC (stereo partly specified) | 25 µM | 300 µM
C[C@]1(O)C(n2cnc3c(NP(N)(=O)O)ncnc32)O[C@H](CO)[C@H]1O (stereo partly specified) | 6 µM | 300 µM
